Anti-infective test results gathered from many reports (values: NIAID ChemDB through PubChem).

Shared fields: whole-cell or culture tests; species: Mycobacterium tuberculosis

ECn: concentration that inhibits the pathogen or its effect by n%.

SMILES,mutations,cell line,read-out,tested at,strain,read by,result
COc1ccc(CN2C(=O)C3(CCN(CC4CCCO4)CC3)c3ccccc32)cc1,-,-,MIC,-,H37Rv,resazurin,50 µM
CCn1cc(C(=O)O)c(=O)c2cc(F)c(N3CCN(CC(=O)c4ccc(Br)cc4)CC3)cc21,-,VERO,EC50,-,H37Rv,-,<6.25 µg/mL
NNC(=O)c1ccncc1,-,-,Median MIC,-,H37Ra,-,0.025 µg/mL
N/C(=N/N=C/c1cccc(Br)c1)c1ccccn1,-,-,MIC,-,1062 (THC-resistant),-,32 µg/mL
Nc1nc(Cl)cc(NCCCNc2cc(Cl)nc(N)n2)n1,-,-,MIC bound,-,H37Rv,BACTEC,>12.5 µg/mL
Nc1ccc(C(=O)N/N=C/c2ccc(O)cc2)cc1,-,-,MIC,-,H37Rv,-,>12.5 µg/mL
NCC[C@H](O)C(=O)N[C@@H]1C[C@H](N)[C@@H](O[C@H]2O[C@H](CN)[C@@H](O)[C@H](O)[C@H]2O)[C@H](O)[C@H]1O[C@H]1O[C@H](CO)[C@@H](O)[C@H](N)[C@H]1O,-,-,Mean MIC,-,H37Ra,-,0.6 µg/mL
C[C@H](N)C(=O)N[C@@H](CB1OC2CC3CC(C3(C)C)[C@@]2(C)O1)Cc1ccccc1,-,-,MIC,-,H37Rv,-,≤50 µg/mL
N/C(=N/N=C/c1ccc(Cl)cc1)c1ccccn1,-,-,MIC,-,1814 (THC-resistant),-,64 µg/mL
Oc1ccccc1-c1nnc(SCC2(c3ccccc3)OCCO2)o1,-,-,inhibition,6.25 µg/mL,H37Rv,BACTEC,55%
CCOC(=O)Cc1ccnc2ccccc12,-,-,MIC,-,H37Rv,-,>6.25 µg/mL
CC1COc2c(N3CCN(C)CC3)c(F)cc3c(=O)c(C(=O)O)cn1c23,-,-,MIC,-,SMI 20,agar,0.5 µg/mL
Cc1c(N2CCC(n3c(=O)[nH]c4cc(Cl)ccc43)CC2)c([N+](=O)[O-])cc2c(=O)c(C(=O)O)cn(-c3ccc(F)cc3F)c12,-,-,MIC,-,H37Rv,-,>20.49 µM
C[C@@H](O)[C@H]1C(=O)N2C(C(=O)O)=C(S[C@@H]3CCCN3C3CCOCC3)S[C@H]12,-,-,MIC,-,H37Rv,visual reading,4 µg/mL
CC(=O)Nc1ccc2c(Cl)cc(N3CCCCC3)nc2n1,-,-,inhibition,6.25 µg/mL,H37Rv,BACTEC,8%
COc1cc(/C=N/NC(=O)c2ccc(N=N/C(C(C)=O)=C(/C)O)cc2)ccc1O,-,-,MIC,-,H37Rv,-,>12.5 µg/mL
COc1ccc(-c2noc(C3=CC4(CCN(CC5CCCO5)CC4)c4ccccc43)n2)cc1,Ofloxacin-resistant,-,MIC,-,12119,resazurin,0.78 µM
C[N+](C)(C)CC(=O)N/N=C/c1c(O)ccc2ccccc12.[Cl-],-,-,inhibition,12.5 µg/mL,H37Rv,BACTEC,-30%
Cc1c(N2COCC2(C)C)c([N+](=O)[O-])cc2c(=O)c(C(=O)O)cn(C(C)(C)C)c12,-,-,MIC,-,H37Rv,-,15.49 µM
CC1OC(CC(=O)O)Cc2c1c(O)c1c(O)cc(-c3cc(=O)c4c(=O)c5c(c(=O)c=4c3=O)CC(CC(=O)O)OC5C)c(O)c1c2O,-,-,inhibition,12.5 µg/mL,H37Rv,BACTEC,2%
C[C@@H](B1OC2CC3CC(C3(C)C)[C@@]2(C)O1)[C@@H](Cc1ccccc1)NC(=O)[C@@H]1CCCN1,-,-,MIC,-,H37Rv,agar,≤500 µg/mL
O=C(O)c1cc(C2CCCC2)nc2ccccc12,-,-,inhibition,6.25 µg/mL,H37Rv,-,4%
CC(=O)NC1=CC(=O)C=CC1=Nc1ccc(N(C)C)cc1,-,VERO,MIC,-,H37Rv,BACTEC,12.5 µg/mL
C[C@@H](O)[C@H]1C(=O)N2C(C(=O)O)=C(S[C@H]3CCCN3)S[C@H]12,-,-,MIC,-,H37Rv,visual reading,0.5 µg/mL
COC(=O)c1cc(C2CCCC2)nc2ccccc12,-,-,MIC,-,H37Rv,-,>6.25 µg/mL
N/C(=N/N=C/c1cccc(F)c1)c1ccccn1,-,-,MIC,-,1062 (THC-resistant),-,64 µg/mL
Cc1ccc2c(Cl)c(Cc3ccccc3)c(N3CCOCC3)nc2n1,-,-,EC50,-,H37Rv,BACTEC,>6.25 µg/mL
C1=C(c2nc(-c3cccnc3)no2)c2ccccc2C12CCN(CC1CCCO1)CC2,Rifampicin-resistant,-,MIC,-,19000,resazurin,1.56 µM
N=Nc1c(OC(=O)Nc2ccccc2)[nH]c2ccccc12,-,-,MIC bound,-,H37Rv,BACTEC,>12.5 µg/mL
N/C(=N/N=C/c1ccccc1Cl)c1ccccn1,-,-,MIC,-,1062 (THC-resistant),-,16 µg/mL
COc1cc(-c2nnc(SCC3(c4ccccc4)OCCO3)o2)cc(OC)c1OC,-,-,inhibition,6.25 µg/mL,H37Rv,BACTEC,14%
Nc1ccc(C(=O)O)c(O)c1,-,-,Mean MIC,-,H37Rv,-,1.25 µg/mL
CCOc1ccc(NC(=O)C(=O)CC(=O)c2c[n+](=O)c3cc(C)c(C)cc3n2[O-])cc1,-,-,MIC bound,-,H37Rv,BACTEC,>12.5 µg/mL
NNC(=O)c1ccncc1,-,-,MIC,-,Clinical isolate 9,-,50 µg/mL
CO[C@H]1/C=C/O[C@@]2(C)Oc3c(C)c(O)c4c(O)c(c(/C=N/N5CCN(C)CC5)c(O)c4c3C2=O)NC(=O)/C(C)=C\C=C\[C@H](C)[C@H](O)[C@@H](C)[C@@H](O)[C@@H](C)[C@H](OC(C)=O)[C@@H]1C,Rifampicin-resistant,-,MIC,-,19000,resazurin,>4.8 µM
CN1C2=[C](CC(Br)=CC2)[Sn]2([C]3=C(CC=C(Br)C3)N(C)c3ccc(Br)c[c]32)[c]2cc(Br)ccc21,-,-,inhibition,12.5 µg/mL,H37Rv,BACTEC,-9%
CC(=O)/C(N=Nc1ccc(C(=O)N/N=C/c2ccc([N+](=O)[O-])o2)cc1)=C(\C)O,-,-,inhibition,12.5 µg/mL,H37Rv,-,95%
Cc1cc2c(c3c1c(=O)c1ccccc1n3C)C=CC(C)(C)O2,-,-,MIC,-,PAS-R,-,6.3 µg/mL
COc1cc(-c2nnc(SCC3(c4ccc(F)cc4)OCCO3)o2)cc(OC)c1OC,-,-,inhibition,6.25 µg/mL,H37Rv,BACTEC,6%
CO[C@H]1/C=C/O[C@@]2(C)Oc3c(C)c(O)c4c(O)c(c(/C=N/N5CCN(C)CC5)c(O)c4c3C2=O)NC(=O)/C(C)=C\C=C\[C@H](C)[C@H](O)[C@@H](C)[C@@H](O)[C@@H](C)[C@H](OC(C)=O)[C@@H]1C,526Tyr,-,MIC99,-,-,-,≥640 µg/mL
COc1ccccc1/C=N/N=C(/N)c1ccccn1,-,-,MIC,-,1062 (THC-resistant),-,32 µg/mL
COC(=O)c1cc(C2C3CC4CC(C3)CC2C4)nc2ccccc12,-,-,MIC,-,H37Rv,-,>6.25 µg/mL
Cc1ccc(C(=O)CN2CCN(c3cc4c(cc3F)c(=O)c(C(=O)O)cn4C3CC3)CC2)cc1,-,VERO,inhibition,6.25 µg/mL,H37Rv,-,101%
CC1(C)C2CC3OB(C[C@@H](Cc4ccccc4)NC(=O)[C@H](Cc4ccccc4)NC(=O)[C@@H](N)Cc4ccccc4)O[C@]3(C)C1C2,-,-,MIC,-,H37Rv,agar,≤500 µg/mL
CC(=O)/C(N=Nc1ccc(C(=O)N/N=C/C=C/c2ccc(N(C)C)cc2)cc1)=C(\C)O,-,-,EC50,-,H37Rv,-,<12.5 µg/mL
O=C(O)COc1ccc(C(=O)/C(SS/C(C(=O)c2ccc(OCC(=O)O)c(Cl)c2Cl)=C2\C=C(c3ccc(Cl)cc3)SS2)=C2/C=C(c3ccc(Cl)cc3)SS2)c(Cl)c1Cl,-,-,inhibition,12.5 µg/mL,H37Rv,BACTEC,7%
COC(=O)c1cc(C2CCCCC2)c2ccccc2n1,-,-,inhibition,6.25 µg/mL,H37Rv,-,15%
N#Cc1ccc(/C=N/N=C(\N)c2ccccn2)cc1,-,-,MIC,-,H37Rv,-,500 µg/mL
COC(=O)c1cc(C2CCCC2)c2ccccc2n1,-,-,MIC,-,H37Rv,-,>6.25 µg/mL
Cc1cc(NC(=O)c2ccc(N)cc2)ccc1N=Nc1ccc2c(O)c(N=Nc3ccc(Cl)c(S(=O)(=O)O)c3)c(S(=O)(=O)O)cc2c1,-,-,MIC bound,-,H37Rv,BACTEC,>12.5 µg/mL
CN[C@@H]1[C@H](O[C@H]2[C@H](O[C@H]3[C@H](O)[C@@H](O)[C@H](N=C(N)N)[C@@H](O)[C@@H]3N=C(N)N)O[C@@H](C)[C@]2(O)C=O)O[C@@H](CO)[C@H](O)[C@H]1O,Drug-resistant,-,MIC,-,18b+,resazurin,0.5 µM
Nc1ccc2c(N3CCCCC3)cc(N3CCCCC3)nc2n1,-,-,inhibition,6.25 µg/mL,H37Rv,BACTEC,72%
O=C(CN1CCN(c2cc3c(cc2F)c(=O)c(C(=O)O)cn3C2CC2)CC1)c1ccc(F)cc1,-,VERO,EC50,-,H37Rv,-,<6.25 µg/mL
CO[C@H]1/C=C/O[C@@]2(C)Oc3c(C)c(O)c4c(O)c(c(/C=N/N5CCN(C)CC5)c(O)c4c3C2=O)NC(=O)/C(C)=C\C=C\[C@H](C)[C@H](O)[C@@H](C)[C@@H](O)[C@@H](C)[C@H](OC(C)=O)[C@@H]1C,-,-,MIC,-,Clinical isolate 10,-,0.5 µg/mL
COC(=O)c1cnc2ccccc2c1C1C2CC3CC(C2)CC1C3,-,-,MIC,-,H37Rv,-,>6.25 µg/mL
CSc1nnc(-c2ccccc2Br)o1,-,-,inhibition,6.25 µg/mL,H37Rv,BACTEC,47%
C[C@@H](B1OC2CC3CC(C3(C)C)[C@@]2(C)O1)[C@@H](Cc1ccccc1)NC(=O)[C@@H](N)CCCCN,-,-,MIC,-,H37Rv,-,≤50 µg/mL
O=C(Nc1cc(Cl)ccc1Cl)P(=O)(O)c1ccccc1,-,-,inhibition,12.5 µg/mL,H37Rv,BACTEC,0%
CCn1cc(C(=O)O)c(=O)c2cc(F)c(N3CCN(CC(=O)c4ccccc4)CC3)cc21,-,VERO,MIC,-,H37Rv,-,6.25 µg/mL
N[C@@H]1CONC1=O,-,-,Median MIC,-,H37Ra,-,25 µg/mL
CC1=CC(C)(C)N=C2SC(=O)c3nc4ccccc4c(=O)n3N12,-,-,inhibition,12.5 µg/mL,H37Rv,BACTEC,-18%
Cc1c(N2CCSCC2)c([N+](=O)[O-])cc2c(=O)c(C(=O)O)cn(C3CC3)c12,-,-,MIC,-,H37Rv,-,2 µM
CCOC(=O)c1cnc2ccc(C)cn2c1=O,-,-,inhibition,6.25 µg/mL,H37Rv,resazurin,-7%
Cc1c(N2CCN(Cc3ccc4c(c3)OCO4)CC2)c([N+](=O)[O-])cc2c(=O)c(C(=O)O)cn(C3CC3)c12,-,-,MIC,-,H37Rv,-,0.77 µM
CCN1C[C@]2(COC)[C@H](O)CC(OC)[C@]34C1[C@H](CC23OC)[C@]1(OC(C)=O)[C@H]2[C@@H](OC(=O)c3ccccc3)[C@](O)(C[C@H]24)[C@@H](OC)[C@@H]1O,-,-,inhibition,12.8 µg/mL,H37Rv,BACTEC,11%
Cc1ccc(/C(CN2CCN(c3cc4c(cc3F)c(=O)c(C(=O)O)cn4C3CC3)CC2)=N\O)cc1,-,-,inhibition,6.25 µg/mL,H37Rv,-,11%
Clc1ccc2c(N3CCCCC3)cc(N3CCOCC3)nc2n1,-,-,EC50,-,H37Rv,BACTEC,>6.25 µg/mL
COc1ccc2c(c1OC)/C(=C/c1ccccc1)OC2C1c2c(cc3c(c2OC)OCO3)CCN1C,-,-,inhibition,12.5 µg/mL,H37Rv,BACTEC,-11%
COc1cc(-c2nnc(SCC(=O)c3ccc(F)cc3)o2)cc(OC)c1OC,-,-,inhibition,6.25 µg/mL,H37Rv,BACTEC,27%
O=[N+]([O-])c1ccc(Cl)c(C=NC23CC4CC(CC(C4)C2)C3)c1,-,-,inhibition,12.5 µg/mL,H37Rv,BACTEC,0%
NC[C@@H]1O[C@H](O[C@H]2[C@@H](O)[C@H](O[C@@H]3[C@@H](O)[C@H](N)C[C@H](N)[C@H]3O[C@H]3O[C@H](CO)[C@@H](O)[C@H](O)[C@H]3N)O[C@@H]2CO)[C@H](N)[C@@H](O)[C@@H]1O,-,-,Median MIC,-,H37Ra,-,4 µg/mL
CCOC(=O)N1CCN(C(=S)N/N=C(\C)c2cnccn2)CC1,-,-,MIC bound,-,H37Rv,BACTEC,>12.5 µg/mL
CC1COc2c(N3CCN(C)CC3)c(F)cc3c(=O)c(C(=O)O)cn1c23,-,-,Mean MIC,-,H37Rv,-,0.75 µg/mL
COc1ccc2[nH]c(=O)c(COC(C)=O)c(COC(C)=O)c2c1,-,-,MIC bound,-,H37Rv,BACTEC,>12.5 µg/mL
COc1cc(/C=N/N=C(\N)c2ccccn2)cc(OC)c1OC,-,-,MIC,-,H37Rv,-,500 µg/mL
[Cl][Fe][Cl].c1cnc2c(c1)ccc1cccnc12,-,VERO,MIC,-,H37Rv,BACTEC,12.5 µg/mL
Nc1ccc(C(=O)O)c(O)c1,-,-,MIC,-,Clinical isolate 9,-,20 µg/mL

Repeating the first 6 entries:

SMILES	mutations	cell line	read-out	tested at	strain	read by	result
COc1ccc(CN2C(=O)C3(CCN(CC4CCCO4)CC3)c3ccccc32)cc1	-	-	MIC	-	H37Rv	resazurin	50 µM
CCn1cc(C(=O)O)c(=O)c2cc(F)c(N3CCN(CC(=O)c4ccc(Br)cc4)CC3)cc21	-	VERO	EC50	-	H37Rv	-	<6.25 µg/mL
NNC(=O)c1ccncc1	-	-	Median MIC	-	H37Ra	-	0.025 µg/mL
N/C(=N/N=C/c1cccc(Br)c1)c1ccccn1	-	-	MIC	-	1062 (THC-resistant)	-	32 µg/mL
Nc1nc(Cl)cc(NCCCNc2cc(Cl)nc(N)n2)n1	-	-	MIC bound	-	H37Rv	BACTEC	>12.5 µg/mL
Nc1ccc(C(=O)N/N=C/c2ccc(O)cc2)cc1	-	-	MIC	-	H37Rv	-	>12.5 µg/mL

MIC bound comes from a single tested concentration. A number after MIC or MFC names an inhibition level or a share of isolates. An empty or dashed field is not shown. Percent inhibition refers to the dose given; in toxicity tests it is the harm to the cells. Neighbouring rows are from separate reports.